Measured values reported in patent US5536648.
For at least one entry, the source does not settle the construct or the ends of the probe.

Test system: GST-GCN4 3.12 (partial GCN4 including C-terminal DNA-binding region) (Saccharomyces cerevisiae)
Test: binding assay
Conditions: microtitre plate capture, binds with 1 ug/ml carrier human DNA, purified recombinant protein, label: 5' biotin on primer c (CATAGCAGGAACTACTAGTA)

Sequence | binding result (MTPBS-Tween, 20 C) | binding result (oligo called d2 in results, d1 in methods)
AAGTGACTCAAGTGACTCAATCCTTGTCTTATGTCCAGAA (double strand) [HIV p24 c-d PCR product with GCN4 site (primer d shown)] | binds | –
AGCGGATGACTCATTTTTTTTTCCTTGTCTTATGTCCAGAA (double strand) | – | binds
